# The exact form of at least one protein or probe is not confirmed. Where a protein sequence is shown, tags need not be part of it.
# Target: T1, EBNA1 DBD (Epstein-Barr virus) (UniProt P03211)
# T1 sequence (looked up, limits assumed): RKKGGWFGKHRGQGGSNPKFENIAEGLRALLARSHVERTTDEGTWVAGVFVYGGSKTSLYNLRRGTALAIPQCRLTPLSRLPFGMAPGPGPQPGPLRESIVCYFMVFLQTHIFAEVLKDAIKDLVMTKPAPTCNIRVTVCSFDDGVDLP
# Test: EMSA
# Details: 0, 100, 300, 900 ng protein, poly(dI-dC); 10 mM Tris-Cl pH 8.0, 100 mM KCl, 1 mM EDTA, 10 mM MgCl2, 0.05 ug/ul poly(dI-dC), 0.5 ug/ul BSA, 0.05% NP40, 35 mM beta-mercaptoethanol, 10% glycerol; room temperature; recombinant protein; label: 32P (5' end, T4 PNK)
sequence,measurement,value
TTTCTTATTTTCCAGGCAGCATATACTATCTCAAGCTCACCATGTC (double strand) [GKN1/2 site probe],binding result,binds

# Reference: paper PMC3904692
